Here are results for one compound from patent US20030181436A1, “Treatment for AIDS, HIV, and other related diseases and compounds for use therewith” (priority 2001, published 2003).

For this series, the system named is HIV-1 attachment to HeLa CD4 LTR B-gal cells. The series is described as follows: Inhibition of attachment assay. The class given is cell-based. As to the method:
The attachment assay was performed with the HeLa CD4 LTR B-gal cells available from the AIDS Research and Reference Reagent Repository. […] HeLa CD4 LTR B-gal cells express cell surface CD4 and contain an LTR B-galactosidase reporter construct. Upon infection either the Tat protein incorporated into the virion or new Tat produced following virus integration and transcription trans-activate the LTR B-gal reporter, leading to expression of the B-galactosidase enzyme. HeLa CD4 LTR B-gal cells are routinely cultured with the required selection antibiotics and scrended for mycoplasma contamination. Twenty-four h prior to initiation of the assay cells were trypsinized, counted and 1×10^4 cells placed in a 0.2 cm well in media without selection antibiotics. Media was removed and compound media placed on the cells and incubated for 15 to 30 min at 37° C. A known titer of virus was then added to the wells and the incubation continued for 1 h. At the end of the incubation the wells were washed 6 times with media and the culture continued for 48 h. At 48 h the wells were washed one time with PBS and B-galactosidase enzyme expression determined by chemiluminescence per manufacturers instructions (Tropix Gal-screen TM, Tropix, Bedford, Mass.). Compound toxicity was monitored on sister plates using MTS dye reduction. (See Tables 14 through 16 and FIGS. 21 and 22).

Where two headings read alike, the source gives them in different places. The amount applied is not stated for every result. The source's definition of the ratio is not given here.

On to `COc1cc(-c2ccc(/N=N/c3ccc4c(S(=O)(=O)O)cc(S(=O)(=O)O)c(N)c4c3O)c(OC)c2)ccc1/N=N/c1ccc2c(S(=O)(=O)O)cc(S(=O)(=O)O)c(N)c2c1O` [Chicago Sky Blue], for which the “Therapeutic Index” value was more than 33. Moreover, the “Therapeutic Index” value (listed as CHICAGO SKY BLUE) is “TI = >33”.
